Pooled drug test results. Numbers come from NIAID ChemDB, via PubChem.

Common to all: tests in culture; agent: Aspergillus fumigatus; measure: MIC

Rows are shuffled and stem from different studies. a–b is a range or a potency band. An empty or dashed field is not shown.

SMILES	strain	method	result
C[C@H]1[C@H](O)[C@@H](C)/C=C/C=C/C=C/C=C/C=C/C=C/C=C/[C@H](O[C@@H]2O[C@H](C)[C@@H](O)[C@H](N)[C@@H]2O)C[C@@H]2O[C@](O)(C[C@@H](O)C[C@@H](O)CC[C@H](O)[C@@H](O)C[C@@H](O)CC(=O)O[C@H]1C)C[C@H](O)[C@H]2C(=O)O	5 isolates		1.25–2.5 µg/mL
CNC1(NC)C=CC(C2SCC(=O)N2c2ncc(-c3cc4ccccc4oc3=O)o2)=CC1	HIC 6094	broth dilution	20 µg/mL
Cc1cccc(/C=N\N(C)Cc2cccc3ccsc23)c1			>64 µg/mL
COc1cc(C2SCC(=O)N2c2ncc(-c3cc4ccccc4oc3=O)o2)ccc1O	HIC 6094	broth dilution	30 µg/mL
COC(/C=C/c1ccco1)=C1/C(=O)C=C(C)C1=O	ATCC 90906		>20 µg/mL
Oc1ccc(CCN=C=S)cc1	Rit 21	visual reading	4 µg/mL
CCOC(=O)C1CC([C@H]2O[C@@H]3OC(C)(C)O[C@@H]3[C@H]2OC)=NO1			>50 µg/mL
Cc1ccc(-n2nc(-c3ccnc4nc5ccccc5n34)sc2=NC(=O)c2ccccc2)cc1	002003		15.6 µg/mL
CCCCCCCCCCCCCCCC(=O)NC1CC(O)C(O)NC(=O)C2C(O)C(CO)CN2C(=O)C(CCC(N)=O)NC(=O)C(C(O)C(O)c2ccc(O)cc2)NC(=O)C2CC(O)CN2C(=O)C(C(C)O)NC1=O			>20 µg/mL
Cc1nc(N)nc(N)c1C#CC1CCCC1			6.2 µg/mL
NC(=S)c1ccnc(SCc2ccccc2F)c1	231		>500 µM
COc1ccc(-n2nc(C(=O)c3cc(C(C)=O)nn3-c3ccccc3)sc2=NC(=O)c2ccccc2)cc1	002003		125 µg/mL
COc1ccc(CC2CC([C@H]3O[C@@H]4OC(C)(C)O[C@@H]4[C@H]3OC)=NO2)cc1			>50 µg/mL
COc1ccc(CSc2cc(C(N)=S)ccn2)cc1	231		125 µM
Nc1scc2c1c(=O)oc1ccccc12		broth dilution	16 µg/mL
NC(=S)c1ccnc(SCc2ccc(F)cc2)c1	231		125 µM
C=C1/C=C(\C)[C@H](CC)OC(=O)[C@H](C)C(=O)C(O)(CO)C/C(OC)=C/[C@@H](C)C1	MF4839		>32 µg/mL
NC(=S)c1ccnc(SCc2ccc(Br)cc2)c1	231		62.5 µM
CN(Cc1cccc2ccsc12)/N=C\c1ccc(C(C)(C)c2ccccc2)cc1			>64 µg/mL
CO[C@@H]1[C@H]2OC(C)(C)O[C@H]2O[C@@H]1C1=NOC(CBr)C1			>50 µg/mL
NCCNC(=O)C1=Nc2ccc(NC(=O)C3=Nc4ccc(C(=O)Nc5ccc6[nH]c(C(=O)NCCN)cc6c5)cc4C3)cc2C1			>25 µg/mL
CN(Cc1cccc2ccccc12)/N=C\C#CC(C)(C)C			>64 µg/mL
O=C1CCC(c2ccccc2)=NN1Cc1n[nH]c(=S)n1-c1ccc(Br)cc1			6 µg/mL
C[C@H]1[C@H](O)[C@@H](C)/C=C/C=C/C=C/C=C/C=C/C=C/C=C/[C@H](O[C@@H]2O[C@H](C)[C@@H](O)[C@H](N)[C@@H]2O)C[C@@H]2O[C@](O)(C[C@@H](O)C[C@@H](O)CC[C@H](O)[C@@H](O)C[C@@H](O)CC(=O)O[C@H]1C)C[C@H](O)[C@H]2C(=O)O			80 µg/mL
C[C@@H]1[C@H](O)[C@@H](C)/C=C/C=C/C=C/C=C/C=C/C=C/C=C/[C@H](O[C@@H]2O[C@H](C)[C@@H](O)[C@H](N)[C@@H]2O)C[C@@H]2O[C@](O)(C[C@@H](O)C[C@@H](O)[C@H](O)CC[C@@H](O)C[C@@H](O)CC(=O)O[C@H]1C)C[C@H](O)[C@H]2C(=O)O	IP 2279.94	broth dilution	0.5 µg/mL
CCOC1CC([C@H]2O[C@@H]3OC(C)(C)O[C@@H]3[C@H]2OC)=NO1			>50 µg/mL
CC(=O)c1cc(C(=O)c2nn(-c3ccc(Cl)cc3)c(=NC(=O)c3ccccc3)s2)n(-c2ccccc2)n1	002003		31.3 µg/mL
Cc1nc(N)nc(N)c1C#Cc1ccccc1			6.2 µg/mL
O=C1CSC(c2cccc([N+](=O)[O-])c2)N1c1ncc(-c2cc3ccccc3oc2=O)o1	HIC 6094	broth dilution	20 µg/mL
CC(=O)N1CCN(c2ccc(OC[C@H]3CO[C@](Cn4ccnc4)(c4ccc(Cl)cc4Cl)O3)cc2)CC1	ATCC 9142	broth dilution	200 µg/mL
COC(=O)C1CC([C@H]2O[C@@H]3OC(C)(C)O[C@@H]3[C@H]2OCc2ccccc2)=NO1			>50 µg/mL
O=C1CSC(c2ccc(O)cc2)N1c1ncc(-c2cc3ccccc3oc2=O)o1	HIC 6094	broth dilution	20 µg/mL
NC(=S)c1ccnc(SCc2ccc(Cl)cc2)c1	231		250 µM
CC1(C)O[C@H]2O[C@H](C3=NOC(Cc4ccc(O)cc4)C3)[C@H](OCc3ccccc3)[C@H]2O1			>50 µg/mL
Cc1ccc(C2=NN(Cc3n[nH]c(=S)n3-c3ccc(Cl)cc3)C(=O)CC2)cc1			8 µg/mL
CCCCC(=O)OC1CC(OC(C)C(C)C(O)C(C)C(O)C(C)C2OC(=O)/C=C/CC(O)CC(O)CC(O)CCC(C)C(O)C[C@@]3(O)O[C@H](CC(O)CC(OC(=O)CC(=O)O)CCCC(O)C4OC4C2C)C[C@H](O)[C@H]3O)OC(C)C1O	IFM 41994		>100 µg/mL
Cc1ccc(C(C)C)c(O)c1	F05		0.16 µg/mL
CCC(O)(C#Cc1c(C)nc(N)nc1N)CC			>50 µg/mL
COc1ccc(C2=NN(Cc3n[nH]c(=S)n3-c3ccc(Br)cc3)C(=O)CC2)cc1			10 µg/mL
COc1cc(/C=N\N(C)Cc2cccc3ccccc23)cc(OC)c1OC			>64 µg/mL
O=C1CCC(c2ccc(Br)cc2)=NN1Cc1n[nH]c(=S)n1-c1ccccc1			9 µg/mL
CN(Cc1cccc2ccccc12)/N=C\c1ccc(C(C)(C)C)cc1			>64 µg/mL
C[C@H]1[C@H](O)[C@@H](C)/C=C/C=C/C=C/C=C/C=C/C=C/C=C/[C@H](O[C@@H]2O[C@H](C)[C@@H](O)[C@H](N)[C@@H]2O)C[C@@H]2O[C@](O)(C[C@@H](O)C[C@@H](O)CC[C@H](O)[C@@H](O)C[C@@H](O)CC(=O)O[C@H]1C)C[C@H](O)[C@H]2C(=O)O	KM 8001		32 µg/mL
CC1(C)O[C@H]2O[C@H](C3=NOC(C#N)C3)[C@H](OCc3ccccc3)[C@H]2O1			>50 µg/mL
O=C1CSC(c2c(F)cccc2F)N1c1ncc(-c2cc3ccccc3oc2=O)o1	HIC 6094	broth dilution	32 µg/mL

5 of the rows above, restated:

SMILES,strain,method,result
NC(=S)c1ccnc(SCc2ccccc2F)c1,231,,>500 µM
Cc1ccc(C(C)C)c(O)c1,F05,,0.16 µg/mL
O=C1CCC(c2ccc(Br)cc2)=NN1Cc1n[nH]c(=S)n1-c1ccccc1,,,9 µg/mL
CCC(O)(C#Cc1c(C)nc(N)nc1N)CC,,,>50 µg/mL
Cc1ccc(C2=NN(Cc3n[nH]c(=S)n3-c3ccc(Cl)cc3)C(=O)CC2)cc1,,,8 µg/mL